Measured values from US6124354A, “Arylcycloalkane carboxylic esters, their use, pharmaceutical compositions and preparation” (dated 2000).

Sequences of proteins named here, by UniProt entry; tags and fusion partners are left off. Residues count along the entry.
UniProt H0W1Z3, 1-590: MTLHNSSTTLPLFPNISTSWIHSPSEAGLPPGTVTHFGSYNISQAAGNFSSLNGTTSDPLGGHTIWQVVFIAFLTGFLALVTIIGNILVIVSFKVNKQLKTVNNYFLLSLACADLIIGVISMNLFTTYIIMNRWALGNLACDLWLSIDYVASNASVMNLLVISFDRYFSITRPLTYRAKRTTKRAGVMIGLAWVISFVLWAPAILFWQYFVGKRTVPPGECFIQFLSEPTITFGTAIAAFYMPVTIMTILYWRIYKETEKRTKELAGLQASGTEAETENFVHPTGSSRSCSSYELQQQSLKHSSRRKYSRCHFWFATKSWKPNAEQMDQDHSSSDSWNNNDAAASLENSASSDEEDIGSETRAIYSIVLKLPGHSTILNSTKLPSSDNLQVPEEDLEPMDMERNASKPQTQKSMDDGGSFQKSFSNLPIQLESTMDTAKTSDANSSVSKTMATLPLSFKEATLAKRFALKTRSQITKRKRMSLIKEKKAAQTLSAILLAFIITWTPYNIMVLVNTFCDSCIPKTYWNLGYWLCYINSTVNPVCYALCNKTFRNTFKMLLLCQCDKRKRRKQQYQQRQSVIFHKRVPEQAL
UniProt H0W7K7, 1-460: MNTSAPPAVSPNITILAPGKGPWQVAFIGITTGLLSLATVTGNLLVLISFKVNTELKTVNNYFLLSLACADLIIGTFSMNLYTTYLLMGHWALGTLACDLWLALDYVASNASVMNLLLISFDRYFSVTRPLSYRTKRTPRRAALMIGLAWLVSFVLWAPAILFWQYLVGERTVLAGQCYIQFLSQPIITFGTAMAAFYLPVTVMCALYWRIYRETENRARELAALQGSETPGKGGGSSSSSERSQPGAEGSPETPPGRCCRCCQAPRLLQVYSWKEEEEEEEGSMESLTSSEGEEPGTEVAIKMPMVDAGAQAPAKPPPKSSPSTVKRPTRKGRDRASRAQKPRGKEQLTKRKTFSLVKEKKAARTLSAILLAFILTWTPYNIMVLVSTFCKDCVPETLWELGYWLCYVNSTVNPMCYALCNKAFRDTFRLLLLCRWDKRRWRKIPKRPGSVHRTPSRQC
UniProt H0VRN8, 1-466: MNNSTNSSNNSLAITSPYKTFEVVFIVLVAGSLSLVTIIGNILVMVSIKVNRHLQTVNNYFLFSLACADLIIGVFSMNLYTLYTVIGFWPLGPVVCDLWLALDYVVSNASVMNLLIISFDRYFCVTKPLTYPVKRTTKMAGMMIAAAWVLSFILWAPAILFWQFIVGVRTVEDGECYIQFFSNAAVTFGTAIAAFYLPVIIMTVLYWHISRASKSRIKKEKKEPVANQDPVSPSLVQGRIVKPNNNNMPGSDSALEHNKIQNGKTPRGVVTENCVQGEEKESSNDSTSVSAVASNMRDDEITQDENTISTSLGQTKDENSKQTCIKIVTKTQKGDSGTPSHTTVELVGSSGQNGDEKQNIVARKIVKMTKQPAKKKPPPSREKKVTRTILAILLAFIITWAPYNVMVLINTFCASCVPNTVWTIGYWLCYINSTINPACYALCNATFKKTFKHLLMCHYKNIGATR

Legend:
parotid (M3 receptor) = parotid (M3 receptor) (Cavia porcellus, UniProt H0W1Z3); assay: Receptor binding assay, (-)3H-QNB competition, parotid gland (M3)
cortex (M1 receptor) = cortex (M1 receptor) (Cavia porcellus, UniProt H0W7K7); assay: Receptor binding assay, (-)3H-QNB competition, cerebral cortex (M1)
heart (M2 receptor) = heart (M2 receptor) (Cavia porcellus, UniProt H0VRN8); assay: Receptor binding assay, (-)3H-QNB competition, heart (M2)
[1] = read-out: M3 (Ki), Table 2, (-)3H-QNB 2 nM
[2] = read-out: M1 (Ki), Table 2, (-)3H-QNB 2 nM
[3] = read-out: M2 (Ki), Table 2, (-)3H-QNB 2 nM
[4] = read-out: Ki M3, Table 1, (-)3H-QNB 2 nM
[5] = read-out: Ki M1, Table 1, (-)3H-QNB 2 nM
[6] = read-out: Ki M2, Table 1, (-)3H-QNB 2 nM
[7] = read-out: M3 (Ki), Table 3, (-)3H-QNB 2 nM
[8] = read-out: M1 (Ki), Table 3, (-)3H-QNB 2 nM
[9] = read-out: M2 (Ki), Table 3, (-)3H-QNB 2 nM
[10] = read-out: M3 (Ki), Table 4, (-)3H-QNB 2 nM
[11] = read-out: M1 (Ki), Table 4, (-)3H-QNB 2 nM
[12] = read-out: M2 (Ki), Table 4, (-)3H-QNB 2 nM

| Structure (SMILES) | Ki (parotid (M3 receptor); [1]) [nM] | Ki (cortex (M1 receptor); [2]) [nM] | Ki (heart (M2 receptor); [3]) [nM] | other results |
| --- | --- | --- | --- | --- |
| CCN(CC)CCCOC(=O)C1(c2ccccc2)CCC1 | 28 | 7 | 67 | – |
| CC(C)N(CCOC(=O)C1(c2ccccc2)CCC1)C(C)C | 66 | 5.8 | 15 | – |
| CC(C)N(CCOC(=O)[C@]1(c2ccccc2)C[C@H]1CO)C(C)C (relative stereo) | – | – | – | Ki (parotid (M3 receptor); [4]): 1200 nM; Ki (cortex (M1 receptor); [5]): 69 nM; Ki (heart (M2 receptor); [6]): 520 nM |
| CC(C)N(CCOC(=O)C1(c2ccsc2)CCCC1)C(C)C | – | – | – | Ki (parotid (M3 receptor); [7]): 22 nM; Ki (cortex (M1 receptor); [8]): 3 nM; Ki (heart (M2 receptor); [9]): 8.4 nM |
| CN1CCC(OC(=O)C2(c3cccs3)CCCC2)CC1 | – | – | – | Ki (parotid (M3 receptor); [7]): 2.6 nM; Ki (cortex (M1 receptor); [8]): 1.1 nM; Ki (heart (M2 receptor); [9]): 4.4 nM |
| CN1[C@@H]2CC[C@H]1CC(OC(=O)C1(c3cccs3)CCCC1)C2 (some centres unmarked) | – | – | – | Ki (parotid (M3 receptor); [7]): 10 nM; Ki (cortex (M1 receptor); [8]): 3.3 nM; Ki (heart (M2 receptor); [9]): 21 nM |
| CC(C)N(CCOC(=O)C1(c2cccc(N)c2)CCC1)C(C)C | 180 | 22 | 94 | – |
| O=C(OC1CN2CCC1CC2)C1(c2cccc3ccccc23)CCC1 (centres unmarked) | – | 3.6 | 18 | – |
| CC(C)N(CCOC(=O)C1(c2ccccc2)CCCCC1)C(C)C | – | – | – | Ki (parotid (M3 receptor); [10]): 29 nM; Ki (cortex (M1 receptor); [11]): 3.5 nM; Ki (heart (M2 receptor); [12]): 9.2 nM |
| CC(C)N(CCOC(=O)C1(c2ccccc2)CC(C)(C)C1)C(C)C | 1.6 | 0.3 | 2.2 | – |
| O=C(OC1CN2CCC1CC2)C1(c2ccsc2)CCCC1 (centres unmarked) | – | – | – | Ki (parotid (M3 receptor); [7]): 1.6 nM; Ki (heart (M2 receptor); [9]): 5.6 nM |
| CC(C)N(CCOC(=O)C1(c2ccc([N+](=O)[O-])cc2[N+](=O)[O-])CCC1)C(C)C | 1100 | 350 | 330 | – |
| CC(C)N(CCOC(=O)C1(c2cccs2)CCCC1)C(C)C | – | – | – | Ki (parotid (M3 receptor); [7]): 22 nM; Ki (cortex (M1 receptor); [8]): 2.7 nM; Ki (heart (M2 receptor); [9]): 14 nM |
| CCC1(CC)CC(C(=O)OCCN(C(C)C)C(C)C)(c2ccccc2)C1 | 14 | 1.7 | 9.2 | – |
| CN1CCC(OC(=O)C2(c3ccccc3)CCC2)CC1 | 2.2 | 0.5 | 3.3 | – |
| O=C(OC1CN2CCC1CC2)C1(c2ccccc2F)CCC1 (centres unmarked) | 1.9 | 0.3 | – | – |
| CC(C)N(CCOC(=O)C1(c2cccc3ccccc23)CCC1)C(C)C | 100 | 20 | 25 | – |
| CN1CCCCC1COC(=O)C1(c2ccccc2)CCC1 (centres unmarked) | 30 | 4.2 | 30 | – |
| CCN(CC)CCOC(=O)C1(c2ccccc2)CC(C)(C)C1 | 1.5 | 0.4 | 3.9 | – |
| COC[C@@H]1C[C@]1(C(=O)OCCN(C(C)C)C(C)C)c1ccccc1 (relative stereo) | – | – | – | Ki (parotid (M3 receptor); [4]): 99 nM; Ki (cortex (M1 receptor); [5]): 5.7 nM; Ki (heart (M2 receptor); [6]): 160 nM |
| CN1[C@@H]2CC[C@H]1C[C@@H](OC(=O)C(CO)c1ccccc1)C2 (some centres unmarked) | – | – | – | Ki (cortex (M1 receptor); [5]): 0.3 nM |
| COc1cccc(C2(C(=O)OC3CN4CCC3CC4)CCC2)c1 (centres unmarked) | 38 | 7.6 | – | – |
| O=C(OC1CN2CCC1CC2)C1(c2ccccc2)CCCCC1 (centres unmarked) | – | – | – | Ki (heart (M2 receptor); [12]): 4.2 nM |
| Cc1cccc(C2(C(=O)OC3CN4CCC3CC4)CCC2)c1 (centres unmarked) | 2.3 | 0.6 | 8.6 | – |
| COC1CCC(C(=O)OC2CN3CCC2CC3)(c2ccccc2)CC1 (centres unmarked) | – | – | – | Ki (parotid (M3 receptor); [10]): 9.3 nM |
| O=C(OC1CN2CCC1CC2)C1(c2cccs2)CCCC1 (centres unmarked) | – | – | – | Ki (parotid (M3 receptor); [7]): 1.6 nM; Ki (cortex (M1 receptor); [8]): 0.3 nM |
| CCN(CC)CCOC(=O)C1(c2ccccc2)CCC1 | 30 | 4.2 | 30 | – |

| Structure (SMILES) | Ki (parotid (M3 receptor); [1]) [nM] | Ki (cortex (M1 receptor); [2]) [nM] | Ki (heart (M2 receptor); [3]) [nM] | other results |
| --- | --- | --- | --- | --- |
| CC(C)N(CCOC(=O)C1(c2ccccc2)CC2(CCC2)C1)C(C)C | 2 | 0.3 | 2.6 | – |
| CCN(CC)CCOC(=O)C1(c2ccccc2)CC(CC)(CC)C1 | – | 27 | – | – |
| CC1(C)CC(C(=O)OC2CN3CCC2CC3)(c2ccccc2)C1 (centres unmarked) | 0.3 | – | – | – |
| CN1CCCC(COC(=O)C2(c3ccccc3)CC(C)(C)C2)C1 (centres unmarked) | 2.1 | 0.5 | 6.3 | – |
| CC1C(OC(=O)C2(c3ccccc3)CCC2)C2CCN1CC2 (centres unmarked) | – | – | 5.3 | – |
| CCN(CC)CCOC(=O)C1(c2cccs2)CCCC1 | – | – | – | Ki (parotid (M3 receptor); [7]): 28 nM; Ki (cortex (M1 receptor); [8]): 3.2 nM; Ki (heart (M2 receptor); [9]): 31 nM |
| O=C(OCC1CN2CCC1CC2)C1(c2ccccc2)CCC1 (centres unmarked) | 7.3 | 1.3 | 13 | – |
| COC[C@@H]1C[C@@]1(C(=O)OCCN(C(C)C)C(C)C)c1ccccc1 (relative stereo) | – | – | – | Ki (parotid (M3 receptor); [4]): 41 nM; Ki (cortex (M1 receptor); [5]): 4.3 nM; Ki (heart (M2 receptor); [6]): 16 nM |
| COc1ccc(C2(C(=O)OC3CN4CCC3CC4)CCC2)cc1 (centres unmarked) | – | 14 | 181 | – |
| CC(C)N(CCOC(=O)C1(c2ccccc2)CCC2(CC1)OCCO2)C(C)C | – | – | – | Ki (parotid (M3 receptor); [10]): 199 nM; Ki (cortex (M1 receptor); [11]): 15 nM; Ki (heart (M2 receptor); [12]): 37 nM |
| CN1CCCC(COC(=O)C2(c3cccs3)CCCC2)C1 (centres unmarked) | – | – | – | Ki (parotid (M3 receptor); [7]): 29 nM; Ki (cortex (M1 receptor); [8]): 6.2 nM; Ki (heart (M2 receptor); [9]): 34 nM |
| COC1CCC(C(=O)OCCN(C(C)C)C(C)C)(c2ccccc2)CC1 (centres unmarked) | – | – | – | Ki (parotid (M3 receptor); [10]): 441 nM; Ki (cortex (M1 receptor); [11]): 39 nM; Ki (heart (M2 receptor); [12]): 55 nM |
| CC(C)N(CCOC(=O)[C@]1(c2ccccc2)C[C@H]1COCc1ccccc1)C(C)C (relative stereo) | – | – | – | Ki (parotid (M3 receptor); [4]): 160 nM; Ki (cortex (M1 receptor); [5]): 10 nM; Ki (heart (M2 receptor); [6]): 50 nM |
| CC(C)N(CCOC(=O)C1(c2ccsc2)CCC1)C(C)C | 35 | 3.3 | 9.4 | – |
| O=C(OCCN1CCCC1)C1(c2ccccc2)CCC1 | 53 | 14 | 89 | – |
| O=C(OC1CN2CCC1CC2)C1(c2cccc([N+](=O)[O-])c2)CCC1 (centres unmarked) | – | 21 | – | – |
| CCN(CC)CCOC(=O)C1(c2ccsc2)CCCC1 | – | – | – | Ki (parotid (M3 receptor); [7]): 29 nM; Ki (cortex (M1 receptor); [8]): 3.7 nM; Ki (heart (M2 receptor); [9]): 40 nM |
| CC(C)N(CCOC(=O)C1(c2ccccc2)CCCC1)C(C)C | – | – | – | Ki (parotid (M3 receptor); [7]): 21 nM; Ki (cortex (M1 receptor); [8]): 3.6 nM; Ki (heart (M2 receptor); [9]): 8.5 nM |
| CC(C)N(CCOC(=O)C1(c2ccccc2)CC(O)C1)C(C)C (centres unmarked) | > 500 | 74 | 160 | – |
| CC(C)N(CCOC(=O)C1(c2ccc3c(c2)OCO3)CCC1)C(C)C | 54 | 13 | 5.2 | – |
| CC(C)N(CCOC(=O)[C@@]1(c2ccccc2)CC[C@H]1C)C(C)C (relative stereo) | 210 | 25 | 68 | – |
| C=C1CC(C(=O)OCCN(C(C)C)C(C)C)(c2ccccc2)C1 | 6.3 | 1.2 | 3.4 | – |
| CN1CCCC(COC(=O)C2(c3ccccc3)CCC2)C1 (centres unmarked) | 30 | 6.4 | 61 | – |
| CC(C)N(CCOC(=O)C1(c2ccc([N+](=O)[O-])cc2)CCC1)C(C)C | 374 | 32 | 83 | – |
| O=C(OC1CN2CCC1CC2)C1(c2cccs2)CCC1 (centres unmarked) | 2 | – | – | – |
| CC(C)N(CCOC(=O)[C@]1(c2ccccc2)CC[C@H]1C)C(C)C (relative stereo) | 130 | 18 | 28 | – |
| CN1[C@@H]2CC[C@H]1C[C@@H](OC(=O)C1(c3ccccc3)CCC1)C2 (relative stereo) | 5.2 | 2.1 | 26 | – |

Like-named read-outs stand apart in the source and are kept apart here.
